In PubChem BioAssay AID435030 (The Scripps Research Institute Molecular Screening Center, 2010):
This is a selection; strong and weak results do not stand in their true shares. Active and inactive are the calls of the source. Rule as the data show it: active = inhibition above about 12%; inactive = the rest.

Assay: growth inhibition of E. coli expressing H. pylori AddAB, primary screen, AddAB inhibitor project, absorbance (AID 435030);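 also: 0% = vehicle wells of infected cells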
Settings: at 11.9 µM, hits give high values

| SMILES | inhibition |
| --- | --- |
| CC(C)(C)C(=O)NC(Sc1ncccn1)C(Cl)(Cl)Cl (stereo unspecified) | inactive: -1.79% |
| CN(CCCl)Cc1cc(Cl)c(NC2=NCCN2)c(Cl)c1 | inactive: -1.9% |
| CCOP(=O)(Nc1ccc(C)cn1)OCC | inactive: -1.13% |
| O=P1(Nc2ccccn2)COc2ccccc2OC1 | inactive: 3.61% |
| CCC1=CC2Cc3nc4ccc(Cl)cc4c(N)c3C(C1)C2 (stereo unspecified) | inactive: 5.01% |
| CCOP(=O)(NC(=NC(C)c1ccccc1)NC(C)c1ccccc1)OCC (stereo unspecified) | inactive: -0.72% |
| O=[As](O)(c1ccccc1Br)c1ccccc1Br | inactive: -0.58% |
| CC1(CBr)Cn2c(nc3ccccc3c2=O)S1 (stereo unspecified) | inactive: 3.11% |
| CC(C)/C=N\N=C(\N)N[N+](=O)[O-] | inactive: -1.1% |
| CN(C(=O)Cc1ccc(Cl)c(Cl)c1)[C@@H]1CCCC[C@H]1N1CCCC1 | inactive: 1.42% |
| COc1ccccc1CNC(=O)COC(=O)C(O)(c1ccccc1)c1ccccc1 | inactive: -0.17% |
| O=C(/C=C/c1ccccc1)OC1CN2CCC1CC2 (stereo unspecified) | inactive: -0.77% |
| CN(C)C1(CNC(=O)c2ccc(S(C)(=O)=O)cc2)CCCCC1 | inactive: 3.39% |
| Cc1nn(-c2ccccc2)c2c1P(=O)(N1CCOCC1)N(C)C(c1ccccc1)=N2 (stereo unspecified) | inactive: 0.94% |
| CC1CCC(C(C)C)C(OP(=O)(Nc2ccccn2)c2ccccc2)C1 (stereo unspecified) | inactive: 3.77% |
| Cc1ccc(C(=O)OC2CN3CCC2CC3)cc1 (stereo unspecified) | inactive: 3.5% |
| O=P1(Nc2ccc(Br)cn2)COc2ccccc2OC1 | inactive: -0.25% |
| NS(=O)(=O)c1cccc(NC(=O)COC(=O)C(O)(c2ccccc2)c2ccccc2)c1 | inactive: 1.61% |
| Cc1ccc(OCC(=O)OC2CN3CCC2CC3)cc1 (stereo unspecified) | inactive: 4.28% |
| O=[As](O)(c1cccs1)c1cccs1 | inactive: 0.74% |
| Nc1cccc([As](=O)(O)c2ccccc2)c1 | inactive: 1.69% |
| O=P1(Nc2ncccn2)COc2ccccc2OC1 | inactive: -0.25% |
| Nc1ccccc1[As](=O)(O)c1ccccc1 | inactive: 0.51% |

| SMILES | inhibition |
| --- | --- |
| O=C(O)COc1ccc([As](=O)(O)O)cc1[N+](=O)[O-] | inactive: -1.89% |
| CS(=O)(=O)c1cc([N+](=O)[O-])c2no[n+]([O-])c2c1 | inactive: 1.97% |
| CCOP1(=S)c2c(C)nn(CCC#N)c2N=C(c2ccccc2F)N1C (stereo unspecified) | inactive: 0.17% |
| O=P(Nc1nccs1)(c1ccccc1)c1nc2ccccc2s1 (stereo unspecified) | active: 82% |
| O=P(Nc1nccs1)(Oc1ccccc1)Oc1ccccc1 | inactive: -0.91% |
| CN(C)C(=O)c1cc([N+](=O)[O-])cc2c1-c1c(cc([N+](=O)[O-])cc1[N+](=O)[O-])C2=O | inactive: 2.92% |
| O=[N+]([O-])c1ccc2c(c1)nnn2O | inactive: 0.94% |
| CN(C(=O)Cc1ccc(Cl)c(Cl)c1)[C@H]1CC[C@@]2(CCCO2)C[C@@H]1N1CCCC1 | inactive: -1.09% |
| N#CCCN(C(=O)COC(=O)C(O)(c1ccccc1)c1ccccc1)c1ccc(F)cc1 | inactive: -1.54% |
| CCOP1(=S)c2c(C)nn(CCC#N)c2N=C(c2ccc(F)cc2)N1C (stereo unspecified) | inactive: -0.93% |
| CN(C(=O)Cc1ccccc1)[C@@H]1CC[C@]2(CCCO2)C[C@H]1N1CCCC1 | inactive: 2.43% |
| NC(=O)Nc1ccc([As](=O)(O)O)cc1 | inactive: 0.78% |
| O=[As](O)(c1cccc(O)c1)c1cccc(O)c1 | inactive: 1.73% |
| Cc1cccc(OCC(=O)OC2CN3CCC2CC3)c1 (stereo unspecified) | inactive: 3.97% |
| COc1cc(C(=O)NCC2(N3CCOCC3)CCCCC2)cc(Cl)c1OC(C)C | inactive: -2.56% |
| O=[As](O)(O)c1cccnc1 | inactive: -0.51% |
| CS(=O)(=O)c1ccc(Cl)c(NC(=O)COC(=O)C(O)(c2ccccc2)c2ccccc2)c1 | inactive: 0.43% |
| O=C(OC1CN2CCC1CC2)c1ccc(Cl)cc1 (stereo unspecified) | inactive: 0.77% |
| COc1cc(C2NCCC3(OCCO3)C2(C)C)cc(OC)c1OC (stereo unspecified) | inactive: 1.29% |
| CCOP(=O)(Nc1cccc2ccccc12)OCC | inactive: 1.24% |
| CCCOP(=S)(Nc1nc(N)cc(=O)[nH]1)OCCC | inactive: -2.23% |
| Cc1ccc(NCCc2c([N+](=O)[O-])cc([N+](=O)[O-])cc2[N+](=O)[O-])cc1 | inactive: -1.91% |
| Nc1cccc2c([As](=O)(O)O)cccc12 | inactive: -0.48% |
